From patent US10570097B2, “Antimicrobial imidazolium compounds” (AGENCY FOR SCIENCE, TECHNOLOGY AND RESEARCH, priority 2014, dated 2020)
Marks after values point to notes of the source that are not given here.

Test system: rat red blood cells (RBCs)
Assay: Hemolysis
Type: cell-based
Conditions: HC10/GM
Method: Before these materials can be used in systemic applications, selectivity of these materials for microbial cells over mammalian cells should also be considered. Such selectivity is often determined by observation of hemolysis. Hemolysis was performed in the following manner, fresh rat red blood cells (RBCs) were diluted with PBS buffer to give an RBC stock suspension (4 vol % blood cells). A 100 μL aliquot of RBC stock was added to a 96-well plate containing […] oligomer compound stock solutions of various concentrations (serial 2-fold dilution in PBS). After 1 h incubation at 37° C., The contents of each well was pipetted into a microcentrifuge tube and then centrifuged at 4000 rpm for 5 min. Hemolytic activity was determined as a function of hemoglobin release by measuring OD576 of […] of the supernatant. A control solution that contained only PBS was used as a reference for 0% hemolysis. 100% hemolysis was measured by adding 0.5% Triton-X to the RBCs. [formula] The selectivity of the materials was also further assessed, by calculating the selectivity indices (SI), a measure and a comparison of safety and efficacies of each oligomer compound. […] Herein, the more stringent control of HC10 value was chosen over the HC50 value often reported in literature.

Structure (SMILES): CCCCCCCCCCCC[n+]1ccn(Cc2ccc(C[n+]3ccn(Cc4ccc(C[n+]5ccn(Cc6ccccc6Cn6cc[n+](Cc7ccc(Cn8cc[n+](Cc9ccc(Cn%10cc[n+](CCCCCCCCCCCC)c%10)cc9)c8)cc7)c6)c5)cc4)c3)cc2)c1.[Br-].[Br-].[Cl-].[Cl-].[Cl-].[Cl-] [Compound 4]
- Selectivity Index: 2.81

Structure (SMILES): CCCCCCCCCCCCCC[n+]1ccn(Cc2ccc(C[n+]3ccn(Cc4ccc(C[n+]5ccn(Cc6ccccc6Cn6cc[n+](Cc7ccc(Cn8cc[n+](Cc9ccc(Cn%10cc[n+](CCCCCCCCCCCCCC)c%10)cc9)c8)cc7)c6)c5)cc4)c3)cc2)c1.[Br-].[Br-].[Cl-].[Cl-].[Cl-].[Cl-] [Compound 5]
- Selectivity Index: 1.15

Structure (SMILES): CCCCCCCCCCCCCCCC[n+]1ccn(Cc2ccc(C[n+]3ccn(Cc4ccc(C[n+]5ccn(Cc6ccccc6Cn6cc[n+](Cc7ccc(Cn8cc[n+](Cc9ccc(Cn%10cc[n+](CCCCCCCCCCCCCCCC)c%10)cc9)c8)cc7)c6)c5)cc4)c3)cc2)c1.[Br-].[Br-].[Cl-].[Cl-].[Cl-].[Cl-] [Compound 6]
- Selectivity Index: 0.83

Structure (SMILES): c1ccc(C[n+]2ccn(Cc3ccc(C[n+]4ccn(Cc5ccc(C[n+]6ccn(Cc7ccccc7Cn7cc[n+](Cc8ccc(Cn9cc[n+](Cc%10ccc(Cn%11cc[n+](Cc%12ccccc%12)c%11)cc%10)c9)cc8)c7)c6)cc5)c4)cc3)c2)cc1 [IBN-1, reference compound]
- Selectivity Index: >>1000^b
